A mixed list of measured activities; the numbers were collected in NIAID ChemDB.

Common to all: host cell toxicity; cell line: U-937; measure: CC50

Rows are shuffled and stem from different studies. a–b is a range or a potency band. An empty or dashed field is not shown. CCn: concentration that lowers growth or viability of the cells by n%.

CC(C)[C@H](NC(=O)[C@H](NCc1ccc(Cl)cc1)[C@H](O)[C@H](Cc1ccccc1)NC(=O)[C@@H](NC(=O)OCc1ccccc1)C(C)(C)C)C(=O)NCc1nc2ccccc2[nH]1 ; value: 4.5 µM
Cn1cc(C(=O)O)c(=O)c2cc(F)c(N3CC=C(c4ccccc4)CC3)c(C(F)(F)F)c21 ; method: MTT ; value: 0.85 µM
NOCc1c(F)cccc1Cl ; value: 44.8 µg/mL
Cc1cn([C@H]2C[C@H](N=[N+]=[N-])[C@@H](CO)O2)c(=O)[nH]c1=O ; method: absorbance ; value: 1520 µM
O=S(=O)(c1cccc2cnccc12)N1CCNCC1 ; value: 10.5 µg/mL
O=S(=O)(c1cccc2cnccc12)N1CCNCC1 ; value: 10.5 µg/mL
CC(CO)n1cnc2c(N)ncnc21 ; value: >100 µM
CC(C)[C@H](NC(=O)[C@H](NCc1ccccc1)[C@H](O)[C@H](Cc1ccccc1)NC(=O)[C@@H](NC(=O)OCc1ccccc1)C(C)(C)C)C(=O)NCc1ccccc1 ; value: 9.1 µM
C=C(C)[C@@H]1CC[C@]2(C(=O)NCCCCCCCC(=O)N[C@@H](CC(C)C)[C@@H](O)CC(=O)O)CC[C@]3(C)[C@H](CC[C@@H]4[C@@]5(C)CC[C@H](O)C(C)(C)[C@@H]5CC[C@]43C)[C@@H]12 ; value: >10 µM
C=C(CC[C@@H](C)[C@H]1CCC2C3C(CC[C@@]21C)[C@@]1(CO)CC[C@H](O)CC1=C[C@@H]3OC(C)=O)C(C)C ; method: XTT ; value: 10.6 µM
CC1(C)Oc2ccc3ccc(=O)oc3c2[C@@H](OC(=O)C23CCC(C)(C(=O)O2)C3(C)C)[C@H]1OC(=O)C12CCC(C)(C(=O)O1)C2(C)C ; value: 24.6 µM
Nc1nc(=O)n([C@@H]2CC[C@H](CO)O2)cc1F ; value: 70 µM
O=C(OC(Cn1ccnc1)c1ccc(Cl)cc1)c1ccc(-c2ccccc2)cc1 ; method: MTT ; value: 88.3 µg/mL
Nc1nc(Cl)c2ncn(CCO)c2n1 ; value: >100 µM
CCCc1cc(=O)oc2c3c(c4c(c12)OC(C)(C)CC4)O[C@@H](C)[C@H](C)[C@@H]3O ; value: 10–20 µM
CC(CO)n1cnc2c(Cl)ncnc21 ; value: >100 µM
Nc1nc(NC2CC2)c2ncn([C@H]3CO[C@@H](CO)O3)c2n1 ; method: MTT ; value: >250 µM
Nc1ncc2ncn(CCO)c2n1 ; value: >100 µM
COP(=O)(c1cc(C)cc(CCC#N)c1)c1c(C(N)=O)[nH]c2ccc(Cl)c(F)c12 ; method: MTS ; value: 26.5 µM

The last 2 rows once more:

smiles	method	value
Nc1ncc2ncn(CCO)c2n1	-	>100 µM
COP(=O)(c1cc(C)cc(CCC#N)c1)c1c(C(N)=O)[nH]c2ccc(Cl)c(F)c12	MTS	26.5 µM